Results of unrelated studies side by side (data: NIAID ChemDB).

Shared fields: growth or infection tests; species: HIV-1; measure: EC50

Neighbouring rows are from separate reports.

smiles	mutations	read by	strain or isolate	cell line	result
CCCc1cc(=O)oc2c3c(c4c(c12)OC(C)(C)CC4)O[C@@H](C)[C@H](C)[C@@H]3O	RT-D67N K70R L100I T215Y K219Q	XTT	NL4-3(RT-4XAZT+L100I)	CEM + CEM-SS	>20 µM
CN1c2ccccc2C2C1C=C(C#N)C(=O)N2c1ccc([N+](=O)[O-])cc1		GFP / fluorescence	14AG	HeLa	0.04 µM
Cc1cc(S(N)(=O)=O)ccc1NC(=O)COc1ccc(Cl)cc1C(=O)c1cccc(C#N)n1	RT-Y181C	cytopathic effect / propidium iodide	Nevirapine-resistant (RT Y181C)	MT-4	<0.01 µM
CC(C)C1=C2[C@H]3CC[C@@H]4[C@@]5(C)CC[C@H](OC(=O)[C@H]6C[C@@H](C(=O)O)C6(C)C)C(C)(C)[C@@H]5CC[C@@]4(C)[C@]3(C)CC[C@@]2(CCNCCc2ccc(Cl)cc2)CC1=O		p24 / ELISA	92HT599	MT-2	<1 µM
CCCCO[C@H](C(=O)O)c1c(C)ncc(-c2ccc(OCC3CC3)cn2)c1N1CCC(C)(C)CC1		luminescence	NL4-3	MT-2	0.0316 µM
Cc1cc2cn[nH]c2cc1NC(=O)COc1ccc(Cl)cc1C(=O)c1cccc(C#N)c1	RT-K103N Y181C	β-galactosidase	HXB2 (RT-K103N Y181C) Recombinant	HeLa + HELA CD4+	<0.01 µM
Cc1cccc(Cl)c1OCCOc1ncc(-c2cnc(C)c([C@H](OC(C)(C)C)C(=O)O)c2N2CCC(C)(C)CC2)cc1F		luminescence	NL4-3	MT-2	0.0022 µM
O=C(O)c1cc(-n2cccc2)ccc1Cl		luciferase / cell fusion	CMU02 X4 CLADE EA	PBMC/5.25M7	22 µM
Cc1ncc(-c2ccc(OCC3CCCC3)cn2)c(N2CCC(C)(C)CC2)c1[C@H](OC(C)(C)C)C(=O)O		luminescence	NL4-3	MT-2	0.0016 µM
Cc1cc(N2CCS(=O)CC2)ccc1NC(=O)COc1ccc(Cl)cc1C(=O)c1cccs1	RT-Y181C	β-galactosidase	HXB2	HeLa + HELA CD4+	0.101–1 µM
CCC(=O)c1ccc(F)c([C@@H]2C[C@@H]2NC(=O)Nc2ccc(C#N)cn2)c1O	NNRTI-resistant (RT Y188L)	β-galactosidase / luminescence	LAI	TZM-bl	≥0.0625 µM
CC(C)C1=C2[C@H]3CC[C@@H]4[C@@]5(C)CC[C@H](OC(=O)[C@H]6C[C@@H](C(=O)O)C6(C)C)C(C)(C)[C@@H]5CC[C@@]4(C)[C@]3(C)CC[C@@]2(CCNC(=O)c2ccc(Cl)cc2OCCN2CCS(=O)(=O)CC2)CC1=O		p24 / ELISA	92HT599	MT-2	<1 µM
CC(=O)c1c(C)nc(-c2ccccc2)nc1NC(=O)c1ccccc1		GFP / fluorescence	B-92US026	PBMC	1.9 µM
Cc1cc2[nH]cnc2cc1NC(=O)COc1ccc(Cl)cc1C(=O)c1cc(F)cc(C(F)(F)F)c1	RT-P225H	β-galactosidase	HXB2	HeLa + HELA CD4+	<0.01 µM
Cc1ncc(-c2ccc(OCCN3CCSCC3)cn2)c(N2CCC(C)(C)CC2)c1[C@H](OC(C)(C)C)C(=O)O		luminescence	NL4-3	MT-2	0.0015 µM
CC(C)CN(C[C@@H](O)[C@H](Cc1ccccc1)NC(=O)O[C@H]1CO[C@H]2OCC[C@H]21)S(=O)(=O)c1ccc2nc(NC3CCN(C4CCCC4)CC3)sc2c1	R41E	reporter gene	T21729	MT-4	110 nM
Cc1ncc(-c2ccc(OCCOc3ccccc3Cl)cn2)c(N2CCC(C)(C)CC2)c1[C@H](OC(C)(C)C)C(=O)O		luminescence	NL4-3	MT-2	0.0011 µM
CC(C)C1=C2[C@H]3CC[C@@H]4[C@@]5(C)CC[C@H](OC(=O)[C@H]6C[C@@H](C(=O)O)C6(C)C)C(C)(C)[C@@H]5CC[C@@]4(C)[C@]3(C)CC[C@@]2(CCNC(=O)c2ccc(OCCN3CCOCC3)cc2)CC1=O		p24 / ELISA	92HT599	MT-2	<1 µM
Cc1ncc(-c2cnc(O[C@@H](C)C3CC3)c(F)c2)c(N2CCC(C)(C)CC2)c1[C@H](OC(C)(C)C)C(=O)O		luminescence	NL4-3	MT-2	0.0078 µM
CC(C)C1=C2[C@H]3CC[C@@H]4[C@@]5(C)CC[C@H](OC(=O)[C@H]6C[C@@H](C(=O)O)C6(C)C)C(C)(C)[C@@H]5CC[C@@]4(C)[C@]3(C)CC[C@@]2(CC(=O)NC(CCN)CNC(=O)c2ccc(Cl)cc2)CC1=O		p24 / ELISA	92HT599	MT-2	<1 µM
C[C@H](Cn1cnc2c(N)ncnc21)OCP(=O)(O)O	M41L/D67N/K70R/K103N/L210W/T215F/K219Q	recombinant virus assay	Clinical isolate	MT-2	0.136 µM
CC(C)C1=C2[C@H]3CC[C@@H]4[C@@]5(C)CC[C@H](OC(=O)[C@H]6C[C@@H](C(=O)O)C6(C)C)C(C)(C)[C@@H]5CC[C@@]4(C)[C@]3(C)CC[C@@]2(CCNC(=O)c2ccc(Cl)cc2OC2CCNCC2)CC1=O		p24 / ELISA	92HT599	MT-2	<1 µM
CC1(C)CC=C(c2cn(-c3nccc(C(=O)NC4CCC(N5CC6CCC(C5)O6)CC4)n3)c3ccc(F)c([C@H](OC(C)(C)C)C(=O)O)c23)CC1	L74I/T124A/G140S/Q148H	luminescence	NL4-3	MT-4	0.0056 µM
Cc1cn(-c2ccc(C(=O)NC(C)(C)CNCC[C@@]34CC[C@]5(C)[C@H](CC[C@@H]6[C@@]7(C)CC[C@H](OC(=O)[C@H]8C[C@@H](C(=O)O)C8(C)C)C(C)(C)[C@@H]7CC[C@]65C)C3=C(C(C)C)C(=O)C4)cc2)cn1		p24 / ELISA	92HT599	MT-2	<1 µM
Cc1cc(S(N)(=O)=O)ccc1NC(=O)COc1ccc(Cl)cc1C(=O)c1cc(Cl)cc(C#N)c1		β-galactosidase	WTRVA	HeLa + HELA CD4+	<0.01 µM
Cc1nc2ccccc2c(-c2cc(F)c3c(c2C)CCCO3)c1[C@H](OC(C)(C)C)C(=O)O	E170K	luminescence	NL4-3	MT-4	0.0099 µM
Cc1cc(C#N)cc(C(=O)c2cc(Cl)ccc2OCC(=O)Nc2ccc(S(N)(=O)=O)nc2C)c1	RT-L100I	β-galactosidase	HXB2	HeLa + HELA CD4+	<0.01 µM
C#C[C@@]1(CO)C=C[C@H](n2cc(C)c(=O)[nH]c2=O)O1	M41L/M184V/L210W/T215Y	recombinant virus assay	Clinical isolate	MT-2	1.42 µM
COc1cc(F)ccc1OCCN(C)c1ccc(-c2cnc(C)c([C@H](OC(C)(C)C)C(=O)O)c2N2CCC(C)(C)CC2)nc1		luminescence	NL4-3	MT-2	0.0016 µM
Cc1cc(C#N)cc(C(=O)c2cc(Cl)ccc2OCC(=O)Nc2cnc(S(N)(=O)=O)cc2C)c1	RT-V106I Y181C	β-galactosidase	HXB2	HeLa + HELA CD4+	0.011–0.1 µM

Repeating the final 3 entries:

smiles	mutations	read by	strain or isolate	cell line	result
C#C[C@@]1(CO)C=C[C@H](n2cc(C)c(=O)[nH]c2=O)O1	M41L/M184V/L210W/T215Y	recombinant virus assay	Clinical isolate	MT-2	1.42 µM
COc1cc(F)ccc1OCCN(C)c1ccc(-c2cnc(C)c([C@H](OC(C)(C)C)C(=O)O)c2N2CCC(C)(C)CC2)nc1		luminescence	NL4-3	MT-2	0.0016 µM
Cc1cc(C#N)cc(C(=O)c2cc(Cl)ccc2OCC(=O)Nc2cnc(S(N)(=O)=O)cc2C)c1	RT-V106I Y181C	β-galactosidase	HXB2	HeLa + HELA CD4+	0.011–0.1 µM

Blank or dashed fields: not listed here. ECn is the concentration giving n% inhibition of infection, replication or growth. a–b is a range or a potency band.